In the assay the target is MERS-CoV nsp10-nsp14 E191A mutant complex (MERS-CoV). The assay is described as follows: cryo-EM structure.

Broadly, the stoichiometry N is the number of molecules, sites or subunits per partner or assembly.

For “MERS-CoV nsp10-nsp14 E191A mutant complex”, the stoichiometry N was 2.

Source of the values: PMC12800083, “Structural and catalytic diversity of coronavirus proofreading exoribonuclease” (2025).
